Assay results published in article PMC10315472.

Experiments:
AMSIN (actinomyces) = experiment: SPR
[1] = molecular target: emorisin (Emergomyces orientalis); experiment: SPR

Substance: wild-type SARS-CoV-2 Spike receptor-binding domain (from UniProt P0DTC2 319-527) (domain or fragment)
- koff (AMSIN (actinomyces)): 0.00219 s⁻¹
- kon (AMSIN (actinomyces)): 11300 M⁻¹ s⁻¹
- koff [1]: 0.045 s⁻¹
- kon [1]: 5.92e+06 M⁻¹ s⁻¹
